Compound potency records, mixed from different reports. Data source: NIAID ChemDB in PubChem.

Common to all: tests in culture; species: Candida albicans; read by: broth dilution; read-out: MIC

An empty or dashed field is not shown. Lines come from different laboratories, so protocols vary.

compound,strain or isolate,result
O=Cc1c(O)ccc2ccc(=O)oc12,-,14000 µM
c1ccc([C@H]2CN3CCSC3=N2)cc1,ATCC 10231,>120 µM
COc1cc(O)c2c(c1)OC(c1ccc(O)cc1)CC2=O,CBMAI 560,320 µg/mL
C1CCC(C(CC2CCCCN2)C2CCCCC2)CC1,-,32 µg/mL
COc1ccccc1O,-,10 µg/mL
CN1CCN(CCCN2c3ccccc3Sc3ccc(Cl)cc32)CC1,-,32 µg/mL
CCOC(=O)C1=C(N)N(c2nc(-c3ccc(Cl)cc3)cs2)C2=C(C(=O)CCC2)C1c1cc2ccccc2nc1F,MTCC 227,100 µg/mL
O=C(CSc1nc2ccccc2[nH]1)N1CCN(C(c2ccccc2)c2ccc(Cl)cc2)CC1,ATCC 76615,>400 µg/mL
C[C@@H]1[C@H](O)[C@@H](C)/C=C/C=C/CC/C=C/C=C/C=C/C=C/C(O[C@H]2O[C@H](C)[C@@H](O)[C@H](N)[C@@H]2O)CC2O[C@](O)(CC(O)C(O)CCC(O)CC(O)CC(O)CC(=O)O[C@H]1C)CC(O)C2C(=O)O,ATCC 10231,10 µg/mL
CC1=CC2C(N)=NC(N)=NC2C=C1c1ccc(N)cc1,ATCC 36082,32 µg/mL
O=c1c2ccccc2[se]n1C1CCCCC1,-,2 µg/mL
COc1ccc2nc(F)c(C3C(C#N)=C(N)N(c4nc(-c5ccc(O)cc5)cs4)C4=C3C(=O)CCC4)cc2c1,MTCC 227,500 µg/mL
CC(C)(C)CC(C)(C)c1ccc(OCCOCC[N+](C)(C)Cc2ccccc2)cc1,-,4 µg/mL
CCN(CC)N1C(=O)C(C(Sc2ccccc2)c2ccc(OC)cc2)SC1=S,ATCC 2091,64 µg/mL
Cc1ccc(C(C)C)cc1,-,22600 µg/mL
CC(C)=CCOc1ccc2c(c1C)C(=O)c1ccccc1C2=O,Standard strain,31.25 µg/mL
Cc1ccc(C(C)C)cc1O,-,>45260 µg/mL
O=C(Cn1nnc2ccccc21)N1CCN(C(c2ccccc2)c2ccc(Cl)cc2)CC1,ATCC 76615,>400 µg/mL
C[C@@H]1[C@H](O)[C@@H](C)/C=C/C=C/CC/C=C/C=C/C=C/C=C/C(O[C@H]2O[C@H](C)[C@@H](O)[C@H](N)[C@@H]2O)CC2O[C@](O)(CC(O)C(O)CCC(O)CC(O)CC(O)CC(=O)O[C@H]1C)CC(O)C2C(=O)O,ATCC 2091,6.25 µg/mL
Clc1ccc(C(c2ccccc2)N2CCN(Cc3nc4ccccc4[nH]3)CC2)cc1,ATCC 76615,25 µg/mL
[Cl][Cu][Cl].c1ccc(CN(Cc2ccccn2)Cc2c3ccccc3cc3ccccc23)nc1,ATCC 10213,>1000 µg/mL
OC(CCl)CN1CCN(C(c2ccccc2)c2ccc(Cl)cc2)CC1,ATCC 76615,100 µg/mL
CCN(CC)N1C(=O)/C(=C/c2ccccc2)SC1=S,ATCC 2091,32 µg/mL
Nc1c(Br)cc(Br)cc1CNC1CCC(O)CC1,NCCLS67/ ATCC 90029,1 µg/mL
Cc1nccn1CC(=O)CN1CCN(C(c2ccccc2)c2ccc(Cl)cc2)CC1,ATCC 76615,25 µg/mL
O=C1NC(=S)S/C1=C\c1cccs1,ATCC 2091,64 µg/mL
C[C@H]1[C@H](O)[C@@H](C)/C=C/C=C/C=C/C=C/C=C/C=C/C=C/[C@H](O[C@@H]2O[C@H](C)[C@@H](O)[C@H](N)[C@@H]2O)C[C@@H]2O[C@](O)(C[C@@H](O)C[C@@H](O)CC[C@H](O)[C@@H](O)C[C@@H](O)CC(=O)O[C@H]1C)C[C@H](O)[C@H]2C(=O)O,ATCC 32354,1.48 µM
COc1ccc2nc(F)c(C3C(C#N)=C(N)N(c4nc(-c5ccccc5)cs4)C4=C3C(=O)CCC4)cc2c1,MTCC 227,500 µg/mL
C[C@@H]1[C@H](O)[C@@H](C)/C=C/C=C/CC/C=C/C=C/C=C/C=C/C(O[C@H]2O[C@H](C)[C@@H](O)[C@H](N)[C@@H]2O)CC2O[C@](O)(CC(O)C(O)CCC(O)CC(O)CC(O)CC(=O)O[C@H]1C)CC(O)C2C(=O)O,ATCC 10231,0.25 µg/mL
COc1cc(C=O)ccc1O,-,130 µg/mL
CCCCc1oc2ccccc2c1C(=O)c1cc(I)c(OCCN(CC)CC)c(I)c1,-,>128 µg/mL
CSc1ccc(C(F)(F)F)cc1-c1cc2nc(N)nc(N)c2cc1C,ATCC 36082,32 µg/mL
CCCCCCCCNC(C)C(O)c1ccc(SC(C)C)cc1,-,16 µg/mL
COc1c(CC=C(C)C)c(O)cc2occ(-c3ccc4c(c3)OCO4)c(=O)c12,ATCC 2091,50 µg/mL
O=C1NC(=S)SC1C(Sc1ccccc1)c1ccc(Cl)cc1,ATCC 2091,32 µg/mL
COc1cc(C)ccc1O,-,1300 µg/mL
O=C1NCN(c2ccccc2)C12CCN(CCCC(c1ccc(F)cc1)c1ccc(F)cc1)CC2,-,>128 µg/mL
Cc1ccc(O)cc1,-,880 µg/mL
CCN(CC)N1C(=O)C(C(Sc2ccccc2)c2ccc(C)cc2)SC1=S,ATCC 2091,64 µg/mL
CCOC(=O)C1=C(N)N(c2nc(-c3ccccc3)cs2)C2=C(C(=O)CCC2)C1c1cc2cc(Cl)ccc2nc1F,MTCC 227,250 µg/mL
OC(Cn1cncn1)(Cn1cncn1)c1ccc(F)cc1F,YL 318,512 µg/mL
OC(Cn1cncn1)(Cn1cncn1)c1ccc(F)cc1F,MTCC 227,>100 µg/mL
C[C@@H]1[C@H](O)[C@@H](C)/C=C/C=C/CC/C=C/C=C/C=C/C=C/C(O[C@H]2O[C@H](C)[C@@H](O)[C@H](N)[C@@H]2O)CC2O[C@](O)(CC(O)C(O)CCC(O)CC(O)CC(O)CC(=O)O[C@H]1C)CC(O)C2C(=O)O,MTCC 227,100 µg/mL
C[C@@H]1[C@H](O)[C@@H](C)/C=C/C=C/CC/C=C/C=C/C=C/C=C/C(O[C@H]2O[C@H](C)[C@@H](O)[C@H](N)[C@@H]2O)CC2O[C@](O)(CC(O)C(O)CCC(O)CC(O)CC(O)CC(=O)O[C@H]1C)CC(O)C2C(=O)O,CBS 562,7.8 µg/mL
C[C@@H]1[C@H](O)[C@@H](C)/C=C/C=C/CC/C=C/C=C/C=C/C=C/C(O[C@H]2O[C@H](C)[C@@H](O)[C@H](N)[C@@H]2O)CC2O[C@](O)(CC(O)C(O)CCC(O)CC(O)CC(O)CC(=O)O[C@H]1C)CC(O)C2C(=O)O,MTCC 227,100 µg/mL